The text below walks through data of US6958323B2 (priority 1997, dated 2005).

Protein sequences, listed by entry. Tags and fused reporters are not part of them. Residues count along the entry.
UniProt Q05941, 23-502 limits assumed: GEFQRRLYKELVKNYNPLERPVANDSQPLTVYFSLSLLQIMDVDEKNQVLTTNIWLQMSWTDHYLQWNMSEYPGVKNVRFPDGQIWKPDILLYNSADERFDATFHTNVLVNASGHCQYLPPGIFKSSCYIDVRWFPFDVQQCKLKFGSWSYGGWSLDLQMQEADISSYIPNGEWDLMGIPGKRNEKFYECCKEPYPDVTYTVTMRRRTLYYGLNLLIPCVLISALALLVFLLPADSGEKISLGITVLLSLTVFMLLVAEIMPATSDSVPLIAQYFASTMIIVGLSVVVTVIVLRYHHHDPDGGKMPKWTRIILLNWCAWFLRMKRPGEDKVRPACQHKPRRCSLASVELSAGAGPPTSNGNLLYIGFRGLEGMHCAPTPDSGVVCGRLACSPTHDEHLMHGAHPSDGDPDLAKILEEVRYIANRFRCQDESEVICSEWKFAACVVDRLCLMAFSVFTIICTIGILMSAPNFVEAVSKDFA

For one assay, the target named is α7 nAChR (Rattus norvegicus, UniProt Q05941).
Assay [1] concerns neuronal nAChRs (α3β4, α3β2, α7 subtypes). The experiment in a line: nAChR subtypes expressed in Xenopus oocytes, electrophysiological currents. The following applies: generally by several orders of magnitude.

Structures are written as SMILES.

With `CC(C)C[C@@H]1NC(=O)[C@H](CO)NC(=O)[C@@H]2CSSC[C@@H](C(N)=O)NC(=O)[C@H](Cc3ccc(O)cc3)NC(=O)[C@H](CC(=O)O)NC(=O)[C@@H]3CCCN3C(=O)[C@H](CC(N)=O)NC(=O)[C@H](CO)NC(=O)[C@H](C)NC(=O)[C@H](C)NC(=O)[C@H](CSSC[C@H](NC(=O)CN)C(=O)N2)NC(=O)[C@@H]2CCCN2C(=O)[C@@H]2CCCN2C1=O`, the concentration for half-maximal inhibition (IC50) at α7 nAChR came to 1700 nM. In addition, in assay [1], the “nAChR subtype for which the peptide has higher specificity” value is recorded as “α3β2-containing subtype”.

In general, IC50 refers to the concentration that gives 50% inhibition. A higher IC50 goes with lower potency.
